Anti-infective test results gathered from many reports (values: NIAID ChemDB through PubChem).

All rows: growth or infection tests; organism: Hepatitis B virus; method: PCR; measure: EC50

Two numbers with a dash give a range or band.

structure | conditions | cell line | value
Cn1nc2cc(NS(=O)(=O)c3cnn(-c4ccc(N)nc4)c3)ccc2c1C(=O)Nc1ccc(F)c(Cl)c1 | - | HepAD38 | 100–1000 µM
C[C@@H](NC(=O)c1c2n(c(=O)n1-c1ccc(OCC(F)(F)F)cc1)CCN(C(=O)c1ccc(Br)c(Cl)c1)C2)c1cccc2nccnc12 | - | HepG2.117 | 0.1–0.5 µM
C=C[C@@](C)(CO)NC(=O)C(=O)c1c(C)c(C(=O)Nc2ccc(F)c(C(F)(F)F)c2)n(C)c1C | - | HepG2.2.15 | 0.001–0.0099 µM
COc1ccc(-n2c(C(=O)N[C@@H]3CCc4cc(OC)ccc43)c3n(c2=O)CCN(C(=O)c2ccc(Br)c(Cl)c2)C3)cc1 | - | HepG2.117 | 0.5–5 µM
Cc1c(C(=O)C(=O)NC(C)(C)c2cscn2)c(C)n(C)c1C(=O)Nc1ccc(F)c(C(F)(F)F)c1 | - | HepG2.2.15 | 0.001–0.0099 µM
CNC(=O)c1ccc(-n2c(=O)c3c(n4ncc(NCc5ccccc5)c24)CN(C(=O)c2ccc(Br)c(Cl)c2)CC3)cc1 | 3 d | HepG2.117 | <0.1 µM
Cn1nc2cc(NS(=O)(=O)C3CC3)cnc2c1C(=O)Nc1ccc(F)c(Cl)c1 | - | HepAD38 | >1000 µM
O=C(NCc1c(F)ccc2nccnc12)c1c2n(c(=O)n1-c1ccc(OC3CC3)cc1)CCN(C(=O)c1ccc(Br)c(Cl)c1)C2 | - | HepG2.117 | <0.1 µM
C#CCNC(=O)C(=O)c1cc(C(=O)Nc2ccc(F)c(C#N)c2)n(C)c1C | - | HepG2.2.15 | 0.01–0.099 µM
COC(=O)N1CC(Cn2cc(S(=O)(=O)Nc3ccc4c(C(=O)Nc5ccc(F)c(Cl)c5)n(C)nc4c3)cn2)C1 | - | HepAD38 | >1000 µM
CC(C)Oc1ccc(-n2c(C(=O)NCc3ccc(S(C)(=O)=O)cc3)c3n(c2=O)CCN(C(=O)c2ccc(Br)c(Cl)c2)C3)cc1 | - | HepG2.117 | 0.5–5 µM
Cn1cc(OC(=O)Nc2ccc3c(C(=O)Nc4ccc(F)c(Cl)c4)n(C)nc3c2)cn1 | - | HepAD38 | >1000 µM
Cc1c(C(=O)C(=O)NC(C)(C)c2ccncc2)c(C)n(C)c1C(=O)Nc1ccc(F)c(C(F)(F)F)c1 | - | HepG2.2.15 | 0.001–0.0099 µM
Cn1nc2cc(NS(=O)(=O)NCc3cccc(F)n3)ccc2c1C(=O)Nc1ccc(F)c(Cl)c1 | - | HepAD38 | 100–1000 µM
C=C[C@](C)(CO)NC(=O)C(=O)c1c(C)c(C(=O)Nc2ccc(F)c(C#N)c2)n(C)c1C | - | HepG2.2.15 | 0.001–0.0099 µM
Cc1cnn2c3c(c(=O)n(-c4ccccc4)c12)CCN(C(=O)c1ccc(Br)c(F)c1)C3 | 3 d | HepG2.117 | 0.5–5 µM
O=C(NCc1ccccc1-n1ccnc1)c1c2n(c(=O)n1-c1ccc(OCC(F)(F)F)cc1)CCN(C(=O)c1ccc(Br)c(Cl)c1)C2 | - | HepG2.117 | 0.5–5 µM
Cn1nc2cc(NS(=O)(=O)N3CCCC3)ccc2c1C(=O)Nc1ccc(F)c(Cl)c1 | - | HepAD38 | 100–1000 µM
COc1ccc(-n2c(C(=O)N[C@@H](CO)c3ccccc3)c3n(c2=O)CCN(C(=O)c2ccc(Br)c(Cl)c2)C3)cc1 | - | HepG2.117 | 0.5–5 µM
O=C(NC1CC1)c1ccc(-n2c(=O)c3c(n4ncc(Cc5ccccc5)c24)CN(C(=O)c2ccc(Br)c(Cl)c2)CC3)cc1 | 3 d | HepG2.117 | >5 µM
Cn1nc2cc(NS(=O)(=O)c3cnn(-c4cc(=O)cc[nH]4)c3)ccc2c1C(=O)Nc1ccc(F)c(Cl)c1 | - | HepAD38 | 100–1000 µM
C#CCNC(=O)C(=O)c1c(Cl)c(C(=O)Nc2ccc(F)c(C#N)c2)n(C)c1Br | - | HepG2.2.15 | 0.01–0.099 µM
CNC(=O)c1ccc(-n2c(=O)c3c(n4ncc(NCc5ccc(OC(F)F)cc5)c24)CN(C(=O)c2ccc(Br)c(Cl)c2)CC3)cc1 | 3 d | HepG2.117 | <0.1 µM
C[C@@H](Oc1ccc([C@@H](C)NC(=O)c2c3n(c(=O)n2-c2ccc(OCC(F)(F)F)cc2)CCN(C(=O)c2ccc(Br)c(Cl)c2)C3)c(F)c1)C(N)=O | - | HepG2.117 | 0.5–5 µM
Cn1nc2cc(N(CCO)S(=O)(=O)NC3CC3)ccc2c1C(=O)Nc1ccc(F)c(Cl)c1 | - | HepAD38 | >1000 µM
C[C@@H]1Cn2c(c(C(=O)N[C@H](C)c3ccccc3)n(-c3ccc(OC4CC4)cc3)c2=O)CN1C(=O)c1ccc(Br)c(Cl)c1 | - | HepG2.117 | 0.5–5 µM
Cn1nc2cc(NS(=O)(=O)N3C4CCC3CC(O)C4)ccc2c1C(=O)Nc1ccc(F)c(Cl)c1 | - | HepAD38 | 100–1000 µM

The last 3 rows once more:

{"structure": "Cn1nc2cc(N(CCO)S(=O)(=O)NC3CC3)ccc2c1C(=O)Nc1ccc(F)c(Cl)c1", "cell line": "HepAD38", "value": ">1000 µM"}
{"structure": "C[C@@H]1Cn2c(c(C(=O)N[C@H](C)c3ccccc3)n(-c3ccc(OC4CC4)cc3)c2=O)CN1C(=O)c1ccc(Br)c(Cl)c1", "cell line": "HepG2.117", "value": "0.5–5 µM"}
{"structure": "Cn1nc2cc(NS(=O)(=O)N3C4CCC3CC(O)C4)ccc2c1C(=O)Nc1ccc(F)c(Cl)c1", "cell line": "HepAD38", "value": "100–1000 µM"}

Blank or dashed fields: not listed here. Rows are shuffled and stem from different studies. ECn: concentration that inhibits the pathogen or its effect by n%.